Compound potency records, mixed from different reports. Data source: NIAID ChemDB in PubChem.

Shared fields: tests in culture; agent: Semliki Forest virus; cells: VERO; measure: EC50

Lines come from different laboratories, so protocols vary. ECn is the concentration giving n% inhibition of infection, replication or growth. An empty or dashed field is not shown.

smiles	read by	value
Nc1ncnc2c1ncn2C[C@H](O)CO	cytopathic effect	150 µg/mL
C=C(N=CC)c1nc(-c2ccc(C)cc2)n([C@@H]2O[C@H](CO)[C@@H](O)[C@H]2O)n1	cytopathic effect	>40 µg/mL
Cc1ccn2c(CSCCO)cnc2c1	cytopathic effect	>100 µg/mL
CON=C1C[C@H](n2cc(C)c(=O)[nH]c2=O)O[C@@H]1CO	cytopathic effect	>200 µg/mL
C=C(N=CC)c1nc(-c2ccccc2)n(C2O[C@H](CO)[C@@H](O)[C@H](O)[C@H]2O)n1	cytopathic effect	>200 µg/mL
CSCC1=C[C@@H](n2cnc3c(N)ncnc32)[C@H](O)[C@@H]1O	cytopathic effect	>200 µg/mL
CC1=CC(=O)N(c2ccccc2)S(=O)(=O)N1COCCO		>400 µg/mL
CC=NC(=N)c1nc(-c2ccccc2)n(COCCO)n1	cytopathic effect	>200 µg/mL
Cc1cccn2c(C3OCCS3)cnc12		>1000 µM
CC(=O)Nc1nc2c(CC(O)CO)ncn2c(=O)[nH]1	cytopathic effect	>200 µg/mL
CC1=C[C@@H](n2cnc3c(N)ncnc32)[C@H](O)[C@@H]1O	cytopathic effect	>200 µg/mL
C=C(N=CC)c1nc(-c2ccc(C)cc2)n(C2O[C@H](CO)[C@@H](O)[C@H](O)[C@H]2O)n1	cytopathic effect	>100 µg/mL
C=CCc1ncn2c(=O)[nH]c(NC(C)=O)nc12	cytopathic effect	>200 µg/mL
N#CC1=CN(COCCO)S(=O)(=O)N=C1N		>400 µg/mL
NC(=O)c1cncc([C@@H]2O[C@H](CO)[C@H](O)[C@@H]2O)c1	cytopathic effect	≥100 µg/mL
Nc1ncnc2c1ncn2[C@@H]1C=C(CO)[C@@H](O)[C@H]1O	cytopathic effect	7 µg/mL
Nc1nc2c(ccn2[C@H]2CO[C@@H](CO)C2)c(=O)[nH]1	cytopathic effect	>200 µg/mL
Nc1ccn([C@@H]2C[C@H](CO)[C@@H](O)[C@H]2O)c(=O)n1	cytopathic effect	3 µg/mL
OC[C@H]1O[C@H](c2cncc(Br)c2)[C@@H](O)[C@H]1O	cytopathic effect	≥100 µg/mL
Nc1nccc2c1ncn2[C@@H]1C[C@H](CO)[C@@H](O)[C@H]1O	cytopathic effect	10 µg/mL
CC=NC(=N)c1nc(-c2cccc(OC)c2)n(C/C=C/c2ccccc2)n1	cytopathic effect	>40 µg/mL
Nc1ncnc2c1ncn2[C@@H]1C[C@H](COP(=O)(O)O)[C@@H](O)[C@H]1O	cytopathic effect	>200 µg/mL
CC=NC(=N)c1nc(-c2ccc(C)cc2)n(Cc2ccccc2)n1	cytopathic effect	>10 µg/mL
CC(=O)OCCOCN1C(N)=CC(N)=NS1(=O)=O		>400 µg/mL
Nc1nc(F)nc2c1ncn2[C@@H]1C=C(CO)[C@@H](O)[C@H]1O	cytopathic effect	≥100 µg/mL
CC(=O)OCCOCN1C(C)=CC(N)=[N+](c2ccccc2)S1(=O)=O		>400 µg/mL
Nc1nc(Cl)c2ccn([C@H]3CO[C@@H](CO)C3)c2n1	cytopathic effect	>200 µg/mL
C[C@H]1O[C@@H](c2n[nH]c(C(N)=O)c2O)[C@H](O)[C@@H]1O	cytopathic effect	>200 µg/mL
Nc1nc2c(ncn2CCCC(O)CF)c(=O)[nH]1	cytopathic effect	>400 µg/mL
OC[C@H]1O[C@@H](c2cncc(Br)c2)[C@@H](O)[C@@H]1O	cytopathic effect	≥100 µg/mL
Nc1ncnc2c1ccn2[C@@H]1C[C@H](O)[C@@H](O)[C@H]1O		>400 µg/mL
CC(=O)OCCOCN1C=CC(=O)N(COCCO)S1(=O)=O		>400 µg/mL
Cc1ccn2c(C3SCCS3)cnc2c1		>1000 µM
Cc1nc(Cc2ccccc2)c2[nH]c(=S)[nH]c(=O)n12	cytopathic effect	>100 µg/mL
CC=NC(=N)c1nc(-c2cccc(OC)c2)n(COCCO)n1	cytopathic effect	>100 µg/mL
NC(=S)c1cncc([C@H]2O[C@H](CO)[C@@H](O)[C@@H]2O)c1	cytopathic effect	≥100 µg/mL
C=C(N=CC)c1nc(-c2cccc(C)c2)n([C@@H]2O[C@H](CO)[C@@H](O)[C@H]2O)n1	cytopathic effect	>40 µg/mL
Cc1ccn2c(C(SCCc3ccccc3)SCCc3ccccc3)cnc2c1		>1000 µM
Nc1ccn(C(CF)CCCO)c(=O)n1	cytopathic effect	>400 µg/mL

The last 4 rows once more:

smiles,read by,value
NC(=S)c1cncc([C@H]2O[C@H](CO)[C@@H](O)[C@@H]2O)c1,cytopathic effect,≥100 µg/mL
C=C(N=CC)c1nc(-c2cccc(C)c2)n([C@@H]2O[C@H](CO)[C@@H](O)[C@H]2O)n1,cytopathic effect,>40 µg/mL
Cc1ccn2c(C(SCCc3ccccc3)SCCc3ccccc3)cnc2c1,,>1000 µM
Nc1ccn(C(CF)CCCO)c(=O)n1,cytopathic effect,>400 µg/mL